Measurements: patent US20230381142A1, “ANTILEISHMANIAL COMPOUNDS, COMPOSITIONS AND USE THEREOF” (TRUSTEES OF BOSTON UNIVERSITY, priority 2022, published 2023)

System: L. donovani intracellular amastigotes infecting THP-1 macrophages
Experiment: GSK intramacrophage L. donovani assay (LD AMMAC, inMac; Assay Conditions C)
Type: cell-based, Leishmania donovani
Procedure: Assay Conditions C: The intramacrophage Leishmania donovani activity assay was performed as described in Antimicrob Agents Chemother (2013) 57(7):2913-22.
The intramacrophage Leishmania donovani activity assay (LD AMMAC) at GlaxoSmithKline was performed as described.
Given the literature precedents described above and the apparent narrow tolerance for R^3 substitutions observed in the primary screen compounds, a thorough and methodical assessment was undertaken of tolerated groups at the three points of diversity (R^1/R^2/R^3) for the core. At this stage of the project, all analogues were assessed using a battery of assays performed in-house at GlaxoSmithKline. For antileishmanial activity, GSK's inMac assay was utilized. This assay provides two readouts of compound potency: average number of intracellular amastigotes per infected cell (AMMAC) EC50, percentage of infected cells per well (INFCELL) EC50, as well as a toxicity output derived from the number of host cells (MAC EC50). In addition, compounds were assessed for toxicity against HepG2 cells (HEPG2 EC50). Here, AMMAC EC50 values were focused on for relative potency assessments. […] It should be noted that for all compounds assessed in this project, the measured toxicity against THP-1 macrophages either equaled or exceeded that of HepG2 hepatocytes, therefore the MAC SI is used here as the more conservative estimate of therapeutic index.

[1] = rows whose L. donovani EC50 is in THP-1 cells (c)
[2] = THP-1 CC50 / L. donovani EC50 (THP-1)

Structure (SMILES)	SI Host cell potency/L. donovani potency [1]	SI Host cell potency/L. donovani potency [2]
CC(C)Cc1n[nH]c2c1C(c1ccccc1Br)N(CCN1CCCC1)C2=O (stereo not shown) [BUCMD00798]	>1.6	
CC(C)Cc1n[nH]c2c1C(c1ccccc1Cl)N(CCN1CCCC1)C2=O (stereo not shown) [BUCMD00799]	>2.5	
COc1ccc(N2C(=O)c3[nH]nc(CC(C)C)c3C2c2ccc(F)cc2C)cc1 (stereo not shown) [BUCMD00800]	50.1	
COc1ccc(N2C(=O)c3[nH]nc(CC(C)C)c3C2c2ccnnc2)cc1 (stereo not shown) [BUCMD00801]	1.0	
COc1ccc(N2C(=O)c3[nH]nc(CC(C)C)c3C2c2ccc(F)c(C(F)(F)F)c2)cc1 (stereo not shown) [BUCMD00802]	5.0	
COc1cc(N2C(=O)c3[nH]nc(CC(C)C)c3C2c2cccc(C(F)(F)F)c2)cc(OC)c1OC (stereo not shown) [BUCMD00803]	2.5	
CC(C)Cc1n[nH]c2c1C(c1cccc(C(F)(F)F)c1)N(c1ccc3ncnn3c1)C2=O (stereo not shown) [BUCMD00804]	6.3	
COc1ccc(N2C(=O)c3[nH]nc(CC(C)C)c3[C@@H]2c2cccc(C(F)(F)F)c2)cn1 [BUCMD00805]	5.0	
CC(C)Cc1n[nH]c2c1C(c1ccc(F)cc1)N(c1cccc(C#N)c1)C2=O (stereo not shown) [BUCMD00806]	>2.0	
CC(C)Cc1n[nH]c2c1C(c1ccc(F)cc1)N(c1ccc(C#N)cc1)C2=O (stereo not shown) [BUCMD00807]	2.0	
COc1ccc(N2C(=O)c3[nH]nc(CC(C)C)c3C2c2ccc(F)cc2)cn1 (stereo not shown) [BUCMD00808]	>5	
CCn1nc(CC(C)C)c2c1C(=O)N(c1ccc(OC)cc1)C2c1ccc(F)cc1 (stereo not shown) [BUCMD00809]	10.0	
CCn1nc2c(c1CC(C)C)C(c1ccc(F)cc1)N(c1ccc(OC)cc1)C2=O (stereo not shown) [BUCMD00810]	>2.5	
COc1ccc(N2C(=O)c3[nH]nc(-c4ccc(OCc5ccccc5)cc4)c3C2c2ccc(F)cc2)cc1 (stereo not shown) [BUCMD00811]	1.6	
COc1ccc(N2C(=O)c3[nH]nc(CC4CCCCC4)c3C2c2ccc(F)cc2)cc1 (stereo not shown) [BUCMD00812]	6.3	
COCn1nc(CC(C)C)c2c1C(=O)N(c1ccc(OC)cc1)C2c1ccc(F)cc1 (stereo not shown) [BUCMD00813]	2.5	
COCn1nc2c(c1CC(C)C)C(c1ccc(F)cc1)N(c1ccc(OC)cc1)C2=O (stereo not shown) [BUCMD00814]	>4	
CC(C)Cc1n[nH]c2c1C(c1ccc(F)cc1)N(c1ccc(-n3ccnc3)cc1)C2=O (stereo not shown) [BUCMD00815]	>20	
CC(C)Cc1n[nH]c2c1C(c1ccc(F)cc1)N(c1ccc(C(C)(C)C)cc1)C2=O (stereo not shown) [BUCMD00816]	>5	
CC(C)Cc1n[nH]c2c1C(c1ccc(F)cc1)N(C(CO)CO)C2=O (stereo not shown) [BUCMD00817]	1.0	
COc1ccc(N2C(=O)c3[nH]nc(CC(C)C)c3C2c2ccccc2)cc1 (stereo not shown) [CMLD007427]	9.9	
COc1ccc(N2C(=O)c3[nH]nc(CC(C)C)c3C2c2ccc(F)cc2)cc1 (stereo not shown) [CMLD007431]	>8	
COc1ccc(N2C(=O)c3[nH]nc(CC(C)C)c3C2c2cccc(C(F)(F)F)c2)cc1 (stereo not shown) [CMLD007432]	2.5	
CC(C)Cc1nn(-c2ccc(OC(F)(F)F)cc2)c2c1C(c1ccccc1)NC2=O (stereo not shown) [CMLD009657]		4.0
CC(C)Cc1n[nH]c2c1C(c1ccc(F)cc1)N(Cc1ccc(C(F)(F)F)cn1)C2=O (stereo not shown) [CMLD010848]	>1.25	
COc1ccc(N2C(=O)c3[nH]nc(CCc4ccccc4)c3C2c2ccc(F)cc2)cc1 (stereo not shown) [CMLD010849]	4.0	

Structure (SMILES)	SI Host cell potency/L. donovani potency [1]	SI Host cell potency/L. donovani potency [2]
COc1cccc(N2C(=O)c3[nH]nc(CC(C)C)c3C2c2ccsc2)c1 (stereo not shown) [CMLD010880]	2.0	
COc1cccc(N2C(=O)c3[nH]nc(CC(C)C)c3C2c2ccccc2Cl)c1 (stereo not shown) [CMLD010881]	2.0	
COc1ccc(N2C(=O)c3[nH]nc(CC(C)C)c3C2C2CCN(Cc3ccccc3)CC2)cc1 (stereo not shown) [CMLD010882]	1.3	
COc1cncc(N2C(=O)c3[nH]nc(CC(C)C)c3C2c2ccc(F)cc2)c1 (stereo not shown) [CMLD010883]	>1.5	
COc1ccc(N2C(=O)c3[nH]nc(CC(C)C)c3C2c2ccc(F)cc2)cc1F (stereo not shown) [CMLD010884]	19.3	
CC(C)Cc1n[nH]c2c1C(c1ccc(F)cc1)N(c1ccc(OC(F)(F)F)cc1)C2=O (stereo not shown) [CMLD010885]	2.5	
COc1ccc(N2C(=O)c3[nH]nc(CC(C)C)c3C2c2cncc(OC)c2)cc1 (stereo not shown) [CMLD010886]	2.0	
COc1ccc(N2C(=O)c3[nH]nc(CC(C)C)c3C2c2ccncn2)cc1 (stereo not shown) [CMLD010887]	1.0	
CC(C)Cc1n[nH]c2c1C(c1ccc(F)cc1)N(c1ccc3ncnn3c1)C2=O (stereo not shown) [CMLD010888]	>10	
COc1ccc(N2C(=O)c3[nH]nc(CC(C)C)c3C2c2ccc(Br)cc2)cc1 (stereo not shown) [CMLD010889]	2.5	
COc1ccc(N2C(=O)c3[nH]nc(CC(C)C)c3C2c2cccc(F)c2)cc1 (stereo not shown) [CMLD010890]	2.5	
COc1ccc(N2C(=O)c3[nH]nc(CC(C)C)c3C2c2cccc(Br)c2)cc1 (stereo not shown) [CMLD010891]	3.2	
COc1ccc(N2C(=O)c3[nH]nc(CC(C)C)c3C2C2CCCCC2)cc1 (stereo not shown) [CMLD010892]	3.2	
COc1ccc(N2C(=O)c3[nH]nc(CC(C)C)c3C2c2ccccc2Cl)cc1 (stereo not shown) [CMLD010893]	15.3	
COc1ccc(N2C(=O)c3[nH]nc(CC(C)C)c3C2c2ccccc2Br)cc1 (stereo not shown) [CMLD010894]	50.2	
COc1cccc(N2C(=O)c3[nH]nc(CC(C)C)c3C2c2ccc(F)cc2)c1 (stereo not shown) [CMLD010895]	2.5	
COc1cc(N2C(=O)c3[nH]nc(CC(C)C)c3C2c2ccc(F)cc2)cc(OC)c1OC (stereo not shown) [CMLD010896]	0.8	
CC(C)Cc1n[nH]c2c1C(c1ccc(F)cc1)N(c1ccc(Br)cc1)C2=O (stereo not shown) [CMLD010897]	12.2	
COc1ccc(N2C(=O)c3[nH]nc(CC(C)C)c3C2c2cccc(C(F)(F)F)c2)cn1 (stereo not shown) [CMLD010898]	10.0	
CCc1ccc(N2C(=O)c3[nH]nc(CC(C)C)c3C2c2ccc(F)cc2)cc1 (stereo not shown) [CMLD010899]	50	
CCOc1ccc(N2C(=O)c3[nH]nc(CC(C)C)c3C2c2ccc(F)cc2)cc1 (stereo not shown) [CMLD010900]	12.5	
CC(C)Cc1n[nH]c2c1C(c1ccc(F)cc1)N(c1ccc3c(c1)OCO3)C2=O (stereo not shown) [CMLD010901]	41.8	
COc1ccc(N2C(=O)c3[nH]nc(CC(C)C)c3C2C2CCCCC2)cn1 (stereo not shown) [CMLD010903]	1.6	
CC(C)Cc1n[nH]c2c1C(c1cccc(C(F)(F)F)c1)N(c1ccc(-n3ccnc3)cc1)C2=O (stereo not shown) [CMLD010924]		0.8
CC(C)Cc1n[nH]c2c1C(c1cccc(C(F)(F)F)c1)N(c1ccc(N(C)C)cc1)C2=O (stereo not shown) [CMLD010925]	2.5	
Cc1cc(F)ccc1C1c2c(CC(C)C)n[nH]c2C(=O)N1c1ccc(-n2ccnc2)cc1 (stereo not shown) [CMLD010926]	20.0	
